Assay results: US20140072553A1 (MORPHOTEK, published 2014)

Key:
bovine serum albumin [1] = target: T1, bovine serum albumin (bovine, UniProt P02769 25-607); assay: antigen panel ELISA, hybridoma supernatant on coated antigen (FIG. 2)
human GM-CSF [2] = target: T2, human GM-CSF (human, UniProt P04141 18-144); assay: as above
hen egg lysozyme [3] = target: T3, hen egg lysozyme (hen, UniProt P00698 19-147); assay: as above
T3 construct: also called HEL
T3 sequence (looked up): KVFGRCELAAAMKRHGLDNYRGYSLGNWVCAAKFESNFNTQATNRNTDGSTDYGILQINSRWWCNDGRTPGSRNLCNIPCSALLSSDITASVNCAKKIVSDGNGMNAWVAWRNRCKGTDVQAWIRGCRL

chicken albumin [4] = target: T4, chicken albumin (chicken, UniProt P01012 2-386); assay: as above
T4 construct: also called CAB
T4 sequence (looked up): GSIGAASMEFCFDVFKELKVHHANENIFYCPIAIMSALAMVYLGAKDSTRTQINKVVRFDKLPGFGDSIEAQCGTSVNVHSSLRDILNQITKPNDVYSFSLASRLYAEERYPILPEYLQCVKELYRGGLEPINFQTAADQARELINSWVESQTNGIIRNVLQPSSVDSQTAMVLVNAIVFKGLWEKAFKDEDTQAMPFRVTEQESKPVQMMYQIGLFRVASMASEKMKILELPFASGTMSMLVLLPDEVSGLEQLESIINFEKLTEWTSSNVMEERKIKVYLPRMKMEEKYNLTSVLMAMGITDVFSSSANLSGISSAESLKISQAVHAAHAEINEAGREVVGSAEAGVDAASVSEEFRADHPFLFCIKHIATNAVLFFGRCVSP

human mesothelin [5] = target: T5, human mesothelin (human, UniProt Q13421 296-598); assay: as above
bovine serum albumin [6] = target: T1, bovine serum albumin; assay: antigen panel ELISA, hybridoma supernatant on coated antigen (FIG. 6)
human GM-CSF [7] = target: T2, human GM-CSF; assay: as above
hen egg lysozyme [8] = target: T3, hen egg lysozyme; assay: as above
chicken albumin [9] = target: T4, chicken albumin; assay: as above
human mesothelin [10] = target: T5, human mesothelin; assay: as above

Measured: binding result

B1: human anti-SEB monoclonal antibody F10 (antibody, V domains shown)
VH: QVQLVQSGGGLVKPGGSLRLSCAASGFTFSSYSMNWVRQAPGKGLEWVSSISSSSSYIYYADSVKGRFTISRDNAKNSLYLQMNSLRAEDTAVYYCARGGVAGRTEIYYYYYGMDVWGQGTTVTVSS
VL: not shown
no binding: bovine serum albumin [1] | human GM-CSF [2] | hen egg lysozyme [3] | chicken albumin [4] | human mesothelin [5]

B2: human anti-SEB monoclonal antibody 79G9 (antibody, V domains shown)
VH: EVQLEESGAGLLKPSETLSLTCAVYGGSFSGYYWSWIRQAPGKGLEWIGEIDHSGTTNYNPSLKSRVTISVETSKNQFSLRLSSVTAADSAVYYCASSGYCSHGLCPQEDWGQGTLVTVSS
VL: DIELTQSPSFLSASVGDRVAITCRASQGISNYLAWYQQKPGKAPKLLIYAAFVLQSGVPSRFSGSGSGTEFTLTISNLQPEDFATYYCQQLNSYPRAFGPGTKVDIKR
no binding: bovine serum albumin [6] | human GM-CSF [7] | hen egg lysozyme [8] | chicken albumin [9] | human mesothelin [10]

B3: human anti-SEB monoclonal antibody 100C9 (antibody, V domains shown)
VH: EVQLVESGGGLVQPGGSLRLSCSASGFTFSSYWMSWVRQAPGKGLEWVANIIQDGSEKYYADSVKGRLTISRDNAKNSLYLQMNSLRVDDTAVYYCARGYEGCSATRCYLYYFDYWGPGTLVTVSS
VL: SYVLTQPPSVSVSPGQTARITCSGDALPKQYTYWYQQKPGQAPVVVIYKDSERPSGIPERFSGSSSGTTVTVTISGVQAEDEADYYCQSADSSGTSLVFGGGTKLTVLG
no binding: bovine serum albumin [6] | human GM-CSF [7] | hen egg lysozyme [8] | chicken albumin [9] | human mesothelin [10]
